Our source for the outcome and AC50 values is PubChem BioAssay (NCATS).

This is a selection; strong and weak results do not stand in their true shares. Active and inactive are the calls of the source. The call rests on the fitted dose curve.

For the assay the following is noted: Ebola virus entry assay, blue channel fluorescence.
With `O=C(O)c1ccccc1O`, the outcome was inactive.
For `CCCCc1oc2ccccc2c1C(=O)c1cc(I)c(OCCN(CC)CC)c(I)c1`, the AC50 was active: 6.31 µM.
Take `Cc1ncc([N+](=O)[O-])n1CCO`: the call was inactive.
